Measured values published in PMC6224051.

Test system: GST-TRP47 full-length (Ehrlichia chaffeensis)
Experiment: EMSA
Conditions: competed by 100-250x unlabeled P4, supershifted by anti-TRP47; 10 mM Tris, 50 mM KCl, 1 mM DTT, 5 mM MgCl2, 2.5% glycerol, 0.05% NP-40, 25 ng/ul poly(dI-dC), 4 C, 1 h; pH not stated; up to 2500 pM probe, up to 10 ug protein; recombinant protein; protein details: N-terminal GST (pGEX-6P-1); label: biotin

Sequence: TCCGCCTCCCGGGTTCACGCCATTCTCCGTCTAA (double strand) [P4]
- binding result: binds

The exact form of at least one protein or probe is not confirmed.
